Measured values published in article PMC5662717 (Scientific Reports, 2017).

Assay: general procedure: Fmoc solid-phase peptide synthesis; Wang resin (aapptech), ~0.5 mmol/g; DIC/HOBt
Conditions: whole synthesis, 220 nm

Question: Which “final HPLC purity” value does the source give for “PEPTIDE1{C.D.R.V.C.Y.H.I.P.F}$PEPTIDE1,PEPTIDE1,1:R3-5:R3$$$V2.0” here?
Answer: 98%

Question: With “PEPTIDE1{C.D.R.V.Y.H.I.P.F.C}$PEPTIDE1,PEPTIDE1,1:R3-10:R3$$$V2.0” as the substance, how does the “final HPLC purity” value read?
Answer: 98%

Question: Which “final HPLC purity” value does the source give for “PEPTIDE1{C.D.R.V.Y.I.H.P.F.C}$PEPTIDE1,PEPTIDE1,1:R3-10:R3$$$V2.0” here?
Answer: 98%

Question: Which “final HPLC purity” value does the source give for “PEPTIDE1{C.D.R.V.Y.P.F.C}$PEPTIDE1,PEPTIDE1,1:R3-8:R3$$$V2.0” here?
Answer: 97%

Question: For “PEPTIDE1{C.R.Y.H.I.P.F.C}$PEPTIDE1,PEPTIDE1,1:R3-8:R3$$$V2.0”, which “final HPLC purity” value is on record?
Answer: 98%

Question: Which “final HPLC purity” value does the source give for “PEPTIDE1{C.R.Y.P.F.C}$PEPTIDE1,PEPTIDE1,1:R3-6:R3$$$V2.0” here?
Answer: 99%

Question: With “PEPTIDE1{C.Y.H.P.F.C}$PEPTIDE1,PEPTIDE1,1:R3-6:R3$$$V2.0” as the substance, how does the “final HPLC purity” value read?
Answer: 97%

Strings that start with PEPTIDE1 are HELM notation: dots part the residues, brackets hold end groups and non-standard residues.
